# Share of PSTVd loop 15 variants by leaf site

The pool varies loop 15 of the PSTVd intermediate strain in the pattern GGAAACCGNNNNNNC; wild type is GGAAACCGCUACUAC (upper and lower strand joined, each 5' to 3', the first 7 letters being the upper strand, closing pairs included).

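A pool of all variants was put on leaves of three Nicotiana benthamiana plants. Progeny were sequenced from the inoculated region (day 5), the margin of the inoculated leaf (day 10) and systemic leaves (day 12).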

Numbers give reads per thousand; 0 = not seen among the reads, higher = more abundant.
Each value is the mean of three plants.
"Pool" is the share in the plasmid pool used as inoculum, on the same scale.
The inoculated region was read from the minus strand, the other sites from the plus strand.
IR is the inoculated region, LM the leaf margin, Sys the systemic leaves.
For reference, wild type rose from 33.9 per thousand in the pool to 202, 200, 159 (inoculated region), 724, 746, 710 (leaf margin) and 856, 883, 880 (systemic leaves).

- GGAAACCGUAAAAGC (pool 0.224) = IR 0.103; LM 0.00668; Sys 0.00537
- GGAAACCGAGAGACC (pool 0.256) = IR 0.124; LM 0.0308; Sys 0.00537
- GGAAACCGAAAGUUC (pool 0.336) = IR 0.328; LM 0.135; Sys 0.0101
- GGAAACCGAGCCAUC (pool 0.160) = IR 0.114; LM 0.0128; Sys 0
- GGAAACCGGCAUUCC (pool 0.192) = IR 0.0850; LM 0.00668; Sys 0
- GGAAACCGAAGCACC (pool 0.352) = IR 0.0643; LM 0.0175; Sys 0.00760
- GGAAACCGUCGACCC (pool 0.240) = IR 0.159; LM 0.00668; Sys 0
- GGAAACCGUUCAUUC (pool 0.288) = IR 0.412; LM 0.0969; Sys 0.0745
- GGAAACCGGCUUCAC (pool 0.272) = IR 0.117; LM 0.00742; Sys 0.0161
- GGAAACCGGAUUCUC (pool 0.208) = IR 0.100; LM 0; Sys 0.00537
- GGAAACCGAUUGCAC (pool 0.160) = IR 0.105; LM 0; Sys 0.00537
- GGAAACCGACUACGC (pool 0.176) = IR 0.0779; LM 0.0254; Sys 0
- GGAAACCGGGCGACC (pool 0.240) = IR 0.102; LM 0; Sys 0
- GGAAACCGUCUCUUC (pool 0.256) = IR 0.0829; LM 0.00742; Sys 0.00504
- GGAAACCGCCCCUGC (pool 0.288) = IR 0.105; LM 0.0228; Sys 0
- GGAAACCGGAGAUAC (pool 0.240) = IR 0.0722; LM 0.0215; Sys 0
- GGAAACCGCCCGUGC (pool 0.256) = IR 0.341; LM 0.0624; Sys 0.0439
- GGAAACCGUCCUACC (pool 0.176) = IR 0.110; LM 0.0108; Sys 0
- GGAAACCGGGCGAAC (pool 0.240) = IR 0.0787; LM 0.0202; Sys 0.00760
- GGAAACCGCCCGAUC (pool 0.224) = IR 0.363; LM 0.103; Sys 0.0107
- GGAAACCGUCAACUC (pool 0.160) = IR 0.356; LM 0.0967; Sys 0.0161
- GGAAACCGCAAAGCC (pool 0.288) = IR 0.130; LM 0.0256; Sys 0.00760
- GGAAACCGAUAACAC (pool 0.304) = IR 0.389; LM 0.116; Sys 0.0531
- GGAAACCGAUGUCCC (pool 0.144) = IR 0.0987; LM 0.0141; Sys 0
- GGAAACCGAAUCCCC (pool 0.288) = IR 0.0685; LM 0.00668; Sys 0
- GGAAACCGCCGGCUC (pool 0.208) = IR 0.0848; LM 0.00742; Sys 0.00537
- GGAAACCGGUCCUAC (pool 0.288) = IR 0.358; LM 0.164; Sys 0.0711
- GGAAACCGGCAGUUC (pool 0.224) = IR 0.246; LM 0.0924; Sys 0.0745

3 of these entries, quoted again:

| sequence | pool | IR | LM | Sys |
|---|---|---|---|---|
| GGAAACCGCCCGUGC | 0.256 | 0.341 | 0.0624 | 0.0439 |
| GGAAACCGAGAGACC | 0.256 | 0.124 | 0.0308 | 0.00537 |
| GGAAACCGGUCCUAC | 0.288 | 0.358 | 0.164 | 0.0711 |

With 43,870-66,106 reads a sample, very low values are single reads.
The authors trace changes outside the varied positions to PCR and sequencing errors or to mutation in the plant; presence does not show that a variant is infectious alone.

The measurements come from Wu et al. 2024 (doi:10.1371/journal.ppat.1012142).